Taken from: PubChem BioAssay AID624099 (ICCB-Longwood, 2012)
Screen: 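Knock-downs relieving repression by E2 of an HPV18 LCR luciferase reporter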 (primary screen). Cell system: human C33A cervical carcinoma cells (HPV-negative) stably expressing BPV1 E2 and an HPV18 LCR luciferase reporter. Knock-down reagent: siRNA pool against human genes, 40 nM. Timing: 72 h. Measured: 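HPV18 LCR reporter light per well, converted to plate-wise z-scores that exclude control wells, and averaged over triplicate plates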. Scale: mean z-score and z-score: higher = stronger reporter signal, weaker E2 silencing. Call rule: 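Mean z ≥ 2 together with z ≥ 2 in two or more of the three replicates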.
The whole screen tested about 21,000 reagents; below is an unselected part. Over the whole deposit, 497 (2.4%) got an active call. 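Higher z means weaker E2 silencing; only reporter increases were scored, and knock-downs that hurt cell survival may mask genuine repressor factors.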

With GIMAP5 (GeneID 55340), what was measured?
mean z-score: 1.24; z-score, replicate A: 0.87; z-score, replicate B: 1.55; z-score, replicate C: 1.28; activity call: inactive

What did the screen give for SEMA4F (GeneID 10505)?
mean z-score: 0.01; z-score, replicate A: -0.36; z-score, replicate B: 0.15; z-score, replicate C: 0.24; activity call: inactive

What did the screen give for TCAP (GeneID 8557)?
mean z-score: -0.18; z-score, replicate A: -0.15; z-score, replicate B: -0.09; z-score, replicate C: -0.31; activity call: inactive

Which result is listed for MMP23B (GeneID 8510)?
mean z-score: -1.05; z-score, replicate A: -0.97; z-score, replicate B: -1.04; z-score, replicate C: -1.15; activity call: inactive

Which result is listed for ATG14 (GeneID 22863)?
mean z-score: -0.02; z-score, replicate A: 0.05; z-score, replicate B: 0.1; z-score, replicate C: -0.21; activity call: inactive

For RSKR (GeneID 124923), what was measured?
mean z-score: 0.77; z-score, replicate A: 0.98; z-score, replicate B: 0.82; z-score, replicate C: 0.5; activity call: inactive

What is on record for FGF14-IT1 (GeneID 283480)?
mean z-score: 0.88; z-score, replicate A: 0.72; z-score, replicate B: 0.82; z-score, replicate C: 1.11; activity call: inactive

Which result is listed for ZNRF3 (GeneID 84133)?
mean z-score: -0.72; z-score, replicate A: -0.72; z-score, replicate B: -1.01; z-score, replicate C: -0.45; activity call: inactive

With UBE2T (GeneID 29089), how do the results read?
mean z-score: -1.24; z-score, replicate A: -1.17; z-score, replicate B: -1.46; z-score, replicate C: -1.09; activity call: inactive

For SYNDIG1 (GeneID 79953), what was measured?
mean z-score: -0.16; z-score, replicate A: -0.04; z-score, replicate B: -0.2; z-score, replicate C: -0.23; activity call: inactive

How did the screen score ZDHHC18 (GeneID 84243)?
mean z-score: 2.72; z-score, replicate A: 2.88; z-score, replicate B: 2.79; z-score, replicate C: 2.49; activity call: active

How did the screen score FUNDC1 (GeneID 139341)?
mean z-score: -0.54; z-score, replicate A: -0.59; z-score, replicate B: -0.8; z-score, replicate C: -0.23; activity call: inactive

Records above with an active call, once more:
ZDHHC18 (GeneID 84243) | mean z-score = 2.72; z-score, replicate A = 2.88; z-score, replicate B = 2.79; z-score, replicate C = 2.49; activity call = active
